Anti-infective test results gathered from many reports (values: NIAID ChemDB through PubChem).

Shared fields: growth or infection tests

ECn: concentration that inhibits the pathogen or its effect by n%. Two numbers with a dash give a range or band. MIC50, MIC90 and the like: level of inhibition, or share of isolates inhibited. Blank or dashed fields: not listed here. Zones are inhibition diameters on agar. Lines come from different laboratories, so protocols vary.

compound | agent | strain or isolate | read by | setting | endpoint | dose | result
Clc1ccc(C(c2ccccc2)n2nnc3ccccc32)cc1 | Candida dubliniensis |  | agar |  | MIC90 |  | >256 µg/mL
CCCCCn1cc[n+](COCCCOC[n+]2ccn(CCCCC)c2)c1 | Candida krusei | ATCC 6258 | agar diffusion |  | MIC100 |  | 1379 µM
CC1CC(=O)N(Cc2ccccc2)C1=O | Candida lusitaniae | CCC 134-2000 | broth dilution / turbidity |  | MIC |  | 125 µg/mL
C[C@@H](c1ncncc1F)[C@](O)(Cn1cncn1)c1ccc(F)cc1F | Candida dubliniensis |  |  |  | MIC50 |  | 0.008–0.03 µg/mL
CC[C@@H]([C@H](C)O)n1ncn(-c2ccc(N3CCN(c4ccc(OC[C@@H]5CO[C@@](Cn6cncn6)(c6ccc(F)cc6F)C5)cc4)CC3)cc2)c1=O | Candida glabrata |  | broth dilution |  | MIC50 |  | 0.5 µg/mL
CCCCCOc1ccc(-c2ccc(-c3ccc(C(=O)N[C@H]4C[C@@H](O)[C@@H](O)NC(=O)[C@@H]5[C@@H](O)[C@@H](C)CN5C(=O)[C@H]([C@H](C)O)NC(=O)[C@H]([C@H](O)[C@@H](O)c5ccc(O)cc5)NC(=O)[C@@H]5C[C@@H](O)CN5C(=O)[C@H]([C@H](C)O)NC4=O)cc3)cc2)cc1 | Candida kefyr |  |  |  | MIC50 |  | 0.015–0.5 µg/mL
CCCCCCCn1cc[n+](COCCCOC[n+]2ccn(CCCCCCC)c2)c1 | Candida krusei | ATCC 6258 | agar diffusion |  | MIC100 |  | 77 µM
CC(=NNC(=O)c1snnc1C(F)(F)F)c1ccc([N+](=O)[O-])cc1 | Candida rugosa | NCIM 3462 | agar diffusion / agar |  | zone | 150 µg/mL | 0 mm
O=C(c1ccccc1)C(c1ccccc1)n1cncn1 | Candida dubliniensis |  | agar |  | MIC90 |  | 4 µg/mL
CC[C@@H]([C@H](C)O)n1ncn(-c2ccc(N3CCN(c4ccc(OC[C@@H]5CO[C@@](Cn6cncn6)(c6ccc(F)cc6F)C5)cc4)CC3)cc2)c1=O | Candida albicans | 15 isolates | broth dilution | pH 5 | EC90 |  | 0.03 µg/mL
O=C(NN=Cc1ccc(F)cc1)c1snnc1C(F)(F)F | Candida rugosa | NCIM 3462 | agar diffusion / agar |  | zone | 150 µg/mL | 0 mm
Clc1ccc(C(c2ccccc2)n2ccnc2)cc1 | Candida dubliniensis |  | broth dilution |  | MFC |  | 16 µg/mL
C[C@@H](N1CCN(Cc2cn(Cc3ccc(Cl)cc3Cl)c3c(Cl)cccc23)CC1)[C@](O)(Cn1cncn1)c1ccc(F)cc1F | Candida albicans | ATCC 90028 | resazurin |  | MIC80 |  | 0.125 µg/mL
CCCCn1cc[n+](COCCCCCOC[n+]2ccn(CCCC)c2)c1 | Candida krusei | ATCC 6258 | agar diffusion |  | MIC100 |  | 779 µM
C=CCc1ccc(OC)c(OC)c1 | Candida glabrata | 2993 | turbidity |  | MIC90 |  | 350 µg/mL
O/N=C/c1ccc(O)cc1 | Candida lipolytica |  |  |  | MIC |  | >7290 µM
CCC(C)CC(C)CCCCCCCCC(=O)N[C@H]1C[C@@H](O)[C@H](NCCN)NC(=O)[C@@H]2[C@@H](O)CCN2C(=O)[C@H]([C@H](O)CCN)NC(=O)[C@H]([C@H](O)[C@@H](O)c2ccc(O)cc2)NC(=O)[C@@H]2C[C@@H](O)CN2C(=O)[C@H]([C@@H](C)O)NC1=O | Candida glabrata | 40 isolates | broth dilution | pH 5 | EC90 |  | 0.5 µg/mL
Nc1ncccc1-c1cc(Cc2ccc(COc3ccccn3)cc2)no1 | Candida glabrata |  | broth dilution |  | MIC50 |  | 0.03 µg/mL
COc1ccc(/C=N\O)cc1 | Candida famata |  | broth dilution |  | MIC100 |  | 6620 µM
CC1CC2=C(O1)c1ccccc1C(=O)C2=O | Candida tropicalis | Clinical isolate | broth dilution |  | MIC |  | 20.15 µg/mL
Cc1ccc(/C=N/Nc2ccnc3cc(Cl)ccc23)cc1 | Candida famata |  |  |  | MFC |  | 40 µg/mL
O/N=C\c1cccs1 | Candida famata |  |  |  | MIC |  | 3930 µM
C[C@@H](N1CCN(Cc2cn(Cc3ccc(F)cc3F)c3cc(Cl)ccc23)CC1)[C@](O)(Cn1cncn1)c1ccc(F)cc1F | Candida albicans | ATCC 90028 | resazurin |  | MIC80 |  | 0.125 µg/mL
C[C@@H]1CC(=O)N(c2ccc(Cl)cc2)C1=O | Candida lusitaniae | CCC 134-2000 | broth dilution / turbidity |  | MIC |  | 62.5 µg/mL
COC(=O)c1ccc(C[C@H](C(=O)OC)[C@@H](O)C(=O)OC)cc1 | Candida pseudotropicalis | KKP 324 |  |  | MIC |  | 1 µg/mL
O=C(NN=Cc1ccco1)c1snnc1C(F)(F)F | Candida rugosa | NCIM 3462 | agar diffusion / agar |  | zone | 150 µg/mL | 0 mm
CCCCCCn1cc[n+](COCCOC[n+]2ccn(CCCCCC)c2)c1 | Candida krusei | ATCC 6258 | agar diffusion |  | MIC100 |  | 669 µM
C[C@@H](N1CCN(Cc2cn(Cc3ccc(F)cc3F)c3c(Cl)cccc23)CC1)[C@](O)(Cn1cncn1)c1ccc(F)cc1F | Candida albicans | ATCC MYA-1003 | resazurin |  | MIC80 |  | 2 µg/mL
O=C(NN=C1CCCCC1)c1snnc1C(F)(F)F | Candida rugosa | NCIM 3462 | agar diffusion / agar |  | zone | 150 µg/mL | 0 mm
Clc1ccc(C(c2ccccc2)N2CCN(CCn3cncn3)CC2)cc1 | Candida glabrata |  | agar |  | MIC90 |  | 32 µg/mL
O/N=C\c1ccc(F)cc1 | Candida famata |  |  |  | MIC100 |  | 3600 µM
CC(=NNC(=O)c1snnc1C(F)(F)F)c1ccccn1 | Candida rugosa | NCIM 3462 | agar diffusion / agar |  | zone | 100 µg/mL | 0 mm
CCC(C)n1ncn(-c2ccc(N3CCN(c4ccc(OC[C@H]5CO[C@](Cn6cncn6)(c6ccc(Cl)cc6Cl)O5)cc4)CC3)cc2)c1=O | Candida albicans | 10 isolates | broth dilution | pH 4 | EC90 |  | >16 µg/mL
O=[N+]([O-])c1ccc(/C=N\O)cc1 | Candida lipolytica |  |  |  | MIC100 |  | 3010 µM
C[C@@H]1CC(=O)N(CCCCc2ccccc2)C1=O | Candida lusitaniae | CCC 134-2000 | broth dilution / turbidity |  | MIC |  | 125 µg/mL
O=C(c1ccccc1)C(c1ccccc1)n1ccnc1 | Candida dubliniensis |  | agar |  | MIC90 |  | 128 µg/mL
Nc1[nH]c(=O)ncc1F | Candida glabrata | 40 isolates | broth dilution | pH 4 | EC90 |  | 0.125 µg/mL
c1ccc(C(c2ccccc2)n2ccnc2)cc1 | Candida dubliniensis |  | agar |  | MIC90 |  | 0.5 µg/mL
CC1CC(=O)N(c2ccc(Br)cc2)C1=O | Candida lusitaniae | CCC 134-2000 | broth dilution / turbidity |  | MIC |  | 250 µg/mL

Repeating the first 5 entries:

compound,agent,strain or isolate,read by,setting,endpoint,dose,result
Clc1ccc(C(c2ccccc2)n2nnc3ccccc32)cc1,Candida dubliniensis,,agar,,MIC90,,>256 µg/mL
CCCCCn1cc[n+](COCCCOC[n+]2ccn(CCCCC)c2)c1,Candida krusei,ATCC 6258,agar diffusion,,MIC100,,1379 µM
CC1CC(=O)N(Cc2ccccc2)C1=O,Candida lusitaniae,CCC 134-2000,broth dilution / turbidity,,MIC,,125 µg/mL
C[C@@H](c1ncncc1F)[C@](O)(Cn1cncn1)c1ccc(F)cc1F,Candida dubliniensis,,,,MIC50,,0.008–0.03 µg/mL
CC[C@@H]([C@H](C)O)n1ncn(-c2ccc(N3CCN(c4ccc(OC[C@@H]5CO[C@@](Cn6cncn6)(c6ccc(F)cc6F)C5)cc4)CC3)cc2)c1=O,Candida glabrata,,broth dilution,,MIC50,,0.5 µg/mL